Source: PubChem BioAssay AID1224833 (University of Georgia, 2016)
Assay: 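Host factors restraining rotavirus as candidate antiviral genes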 (primary screen). System: monkey MA104 kidney cells. Knock-down reagent: siRNA pool against human genes, 50 nM. Duration: 48 h knock-down before infection; read 24 h after infection. Treatment: infection with rotavirus strain RV3 two days after transfection; infectious dose for this stage not given. Read-out: 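z-score of rotavirus antigen signal per well, from a fluorescent immunoassay, relative to non-targeting control wells on the same plate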. Direction: z-score vs non-targeting control: higher = more rotavirus replication than with non-targeting control. Active means: In these data the active calls have z-score vs non-targeting control at about -1 or lower, or at about 1 or higher. Calls: active = z-score beyond 1 either way; inactive = z-score within 1 of zero.
In all, the deposit lists about 12,000 reagents; shown is an unselected part. About 5,600 of all reagents (46%) were called active. 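Active calls cover z-scores past 1 in both directions, so they include lowered as well as raised rotavirus replication.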

The first 7 entries, to show the layout:
gene symbol | z-score vs non-targeting control | Outcome
KLRK1 (GeneID 22914) | -0.0181 | inactive
PCBP1 (GeneID 5093) | -0.622 | inactive
FUT7 (GeneID 2529) | -2.48 | active
CCDC68 (GeneID 80323) | -2.43 | active
ARK2N (GeneID 147339) | -0.881 | inactive
EFR3A (GeneID 23167) | -1.08 | active
OR4B1 (GeneID 119765) | -0.456 | inactive

The list itself, repeating the preview:
gene symbol | z-score vs non-targeting control | Outcome
KLRK1 (GeneID 22914) | -0.0181 | inactive
PCBP1 (GeneID 5093) | -0.622 | inactive
FUT7 (GeneID 2529) | -2.48 | active
CCDC68 (GeneID 80323) | -2.43 | active
ARK2N (GeneID 147339) | -0.881 | inactive
EFR3A (GeneID 23167) | -1.08 | active
OR4B1 (GeneID 119765) | -0.456 | inactive
BARHL2 (GeneID 343472) | -0.902 | inactive
SLC35F6 (GeneID 54978) | -0.754 | inactive
NSUN3 (GeneID 63899) | -1.12 | active
SNAPC5 (GeneID 10302) | -0.0235 | inactive
ZPBP (GeneID 11055) | 0.298 | inactive
SEC24C (GeneID 9632) | -0.778 | inactive
PGD (GeneID 5226) | -2.43 | active
PFDN4 (GeneID 5203) | -0.559 | inactive
PUDP (GeneID 8226) | 0.544 | inactive
LIMS1 (GeneID 3987) | -1.56 | active
ELMOD3 (GeneID 84173) | -2.62 | active
AKAP19 (GeneID 84281) | -1.47 | active
JAM2 (GeneID 58494) | -3.03 | active
GALR2 (GeneID 8811) | -1.31 | active
DCAF4L2 (GeneID 138009) | -2.42 | active
FTSJ3 (GeneID 117246) | -1.37 | active
KRT85 (GeneID 3891) | 0.173 | inactive
MPC1 (GeneID 51660) | -0.918 | inactive
ITLN2 (GeneID 142683) | 0.837 | inactive
PLCG2 (GeneID 5336) | -3.34 | active
DNTTIP2 (GeneID 30836) | 0.151 | inactive
GSDMB (GeneID 55876) | 0.419 | inactive
ZNF154 (GeneID 7710) | -1.15 | active
SLC22A6 (GeneID 9356) | 1 | active
RAPGEF1 (GeneID 2889) | 0.0879 | inactive
OR7G2 (GeneID 390882) | -0.538 | inactive
BLTP2 (GeneID 9703) | -0.583 | inactive
NOMO1 (GeneID 23420) | -1.44 | active
TSPAN13 (GeneID 27075) | -0.171 | inactive
CDIP1 (GeneID 29965) | -2.34 | active
DNAJB9 (GeneID 4189) | 1.2 | active
UBA52 (GeneID 7311) | 0.918 | inactive
AGO2 (GeneID 27161) | -2.51 | active
CNR1 (GeneID 1268) | -0.921 | inactive
BEX3 (GeneID 27018) | 0.25 | inactive
PAX2 (GeneID 5076) | -1.12 | active
TMEM257 (retired record) (GeneID 9142) | 0.714 | inactive
BET1 (GeneID 10282) | -1.08 | active
PURA (GeneID 5813) | -2.29 | active
NOPCHAP1 (GeneID 121053) | -0.909 | inactive
FST (GeneID 10468) | -1.22 | active
KATNB1 (GeneID 10300) | -0.916 | inactive
LMAN1 (GeneID 3998) | -0.662 | inactive
ICA1L (GeneID 130026) | 0.242 | inactive
KLRF1 (GeneID 51348) | -0.868 | inactive
GRB7 (GeneID 2886) | -0.69 | inactive
EPC1 (GeneID 80314) | -0.88 | inactive
AQP12A (GeneID 375318) | -0.138 | inactive
DEFB114 (GeneID 245928) | -0.283 | inactive
CERCAM (GeneID 51148) | -1.5 | active
ERCC3 (GeneID 2071) | 1.07 | active
ZFYVE21 (GeneID 79038) | 1.13 | active
DRC2 (GeneID 85478) | -0.572 | inactive
SNRPB (GeneID 6628) | 0.504 | inactive
PDCL (GeneID 5082) | -0.883 | inactive
ZNF280B (GeneID 140883) | 1.39 | active
DHX37 (GeneID 57647) | -0.662 | inactive
MECP2 (GeneID 4204) | 1.03 | active
TTC22 (GeneID 55001) | 0.721 | inactive
SPATA13 (GeneID 221178) | -0.895 | inactive
ARRDC3 (GeneID 57561) | -1.58 | active
PSMD8 (GeneID 5714) | 1.01 | active
MTERF2 (GeneID 80298) | 1.49 | active
ENHO (GeneID 375704) | 0.619 | inactive
PXT1 (GeneID 222659) | 0.775 | inactive
ARLN (GeneID 401152) | -1.54 | active
LINC01587 (GeneID 10141) | 0.12 | inactive
CD226 (GeneID 10666) | -1.21 | active
GIGYF2 (GeneID 26058) | 0.776 | inactive
IL4I1 (GeneID 259307) | 1.07 | active
SLC26A6 (GeneID 65010) | -0.504 | inactive
ASGR2 (GeneID 433) | -1.84 | active
PRSS3 (GeneID 5646) | 0.542 | inactive
TTPA (GeneID 7274) | -0.131 | inactive
S100A5 (GeneID 6276) | 0.0967 | inactive
HDAC2 (GeneID 3066) | -1.03 | active
ADAM30 (GeneID 11085) | 1.29 | active
HES5 (GeneID 388585) | -1.7 | active
DYSF (GeneID 8291) | 1.49 | active
RP9 (GeneID 6100) | -1.07 | active
LGR5 (GeneID 8549) | -1.02 | active
BNC1 (GeneID 646) | -0.7 | inactive
TIFA (GeneID 92610) | -0.0192 | inactive
KRT28 (GeneID 162605) | -0.487 | inactive
TRAPPC4 (GeneID 51399) | 0.0915 | inactive
ITIH4 (GeneID 3700) | 0.0383 | inactive
LTBP1 (GeneID 4052) | 2.19 | active
JDP2 (GeneID 122953) | 3.3 | active
RFLNB (GeneID 359845) | -0.962 | inactive
SEMA4C (GeneID 54910) | -1.09 | active
CT83 (GeneID 203413) | 1.12 | active
HBEGF (GeneID 1839) | -1.04 | active
CYFIP1 (GeneID 23191) | -0.633 | inactive
ZSCAN21 (GeneID 7589) | -1.08 | active
CSTF1 (GeneID 1477) | -1.41 | active
PXMP2 (GeneID 5827) | -0.194 | inactive
NFYC (GeneID 4802) | 0.585 | inactive
OR7A10 (GeneID 390892) | -1.31 | active
HTR5A (GeneID 3361) | -2.31 | active
PDE7A (GeneID 5150) | -0.539 | inactive
KLHL18 (GeneID 23276) | -1.44 | active
EXOC3L4 (GeneID 91828) | -1.28 | active
TFAP2E (GeneID 339488) | -0.349 | inactive
